A mixed list of measured activities; the numbers were collected in NIAID ChemDB.

All rows: tests in culture; species: Aspergillus fumigatus

Blank or dashed fields: not listed here. Lines come from different laboratories, so protocols vary. Percent inhibition refers to the dose given; in toxicity tests it is the harm to the cells. Zones are inhibition diameters on agar. A number after MIC or MFC names an inhibition level or a share of isolates.

smiles	read by	mutations	strain	dose	read-out	value
C[C@H]1[C@H](O)[C@@H](C)/C=C/C=C/C=C/C=C/C=C/C=C/C=C/[C@H](O[C@@H]2O[C@H](C)[C@@H](O)[C@H](N)[C@@H]2O)C[C@@H]2O[C@](O)(C[C@@H](O)C[C@@H](O)CC[C@H](O)[C@@H](O)C[C@@H](O)CC(=O)O[C@H]1C)C[C@H](O)[C@H]2C(=O)O	-	-	-	-	MLC90	4 µg/mL
CN(C)/C=C/C(=O)c1nn(-c2ccccc2)cc1-c1ccc([N+](=O)[O-])cc1	agar diffusion / agar	-	-	2.5 mg/mL	zone	5 mm
COc1ccc(C(=O)Cn2ccnc2)cc1	broth dilution	-	-	80 µg/mL	inhibition	46%
CCOC(=O)c1ccc(-c2nn(-c3ccccc3)cc2-c2ccc([N+](=O)[O-])cc2)nc1C	agar diffusion / agar	-	-	1.25 mg/mL	zone	5 mm
CCCCCOc1ccc(-c2cc(-c3ccc(C(=O)N[C@H]4C[C@@H](O)[C@@H](O)NC(=O)[C@@H]5[C@@H](O)[C@@H](C)CN5C(=O)[C@H]([C@H](O)CC(N)=O)NC(=O)[C@H]([C@H](O)[C@@H](O)c5ccc(O)c(OS(=O)(=O)O)c5)NC(=O)[C@@H]5C[C@@H](O)CN5C(=O)[C@H]([C@@H](C)O)NC4=O)cc3)no2)cc1	-	-	19 isolates	-	MFC90	>64 µg/mL
CC(C)CC(O)C(=O)O	broth dilution / visual reading	-	MRCM 24290	-	MFC100	18000 µg/mL
COc1ccc(C(=O)Cn2cncn2)cc1	broth dilution	-	-	80 µg/mL	inhibition	48%
Cc1ccc(-n2cc(-c3ccc([N+](=O)[O-])cc3)c(-c3ccn[nH]3)n2)cc1	agar diffusion / agar	-	-	1.25 mg/mL	zone	4 mm
C[C@H]1[C@H](O)[C@@H](C)/C=C/C=C/C=C/C=C/C=C/C=C/C=C/[C@H](O[C@@H]2O[C@H](C)[C@@H](O)[C@H](N)[C@@H]2O)C[C@@H]2O[C@](O)(C[C@@H](O)C[C@@H](O)CC[C@H](O)[C@@H](O)C[C@@H](O)CC(=O)O[C@H]1C)C[C@H](O)[C@H]2C(=O)O	-	-	Isolate AF65	-	MEC	1 µg/mL
CCC(C)n1ncn(-c2ccc(N3CCN(c4ccc(OC[C@H]5CO[C@](Cn6cncn6)(c6ccc(Cl)cc6Cl)O5)cc4)CC3)cc2)c1=O	-	-	35 isolates	-	MFC50	16 µg/mL
Cc1ccc(-n2cc(-c3ccc([N+](=O)[O-])cc3)c(-c3ccnc4nncn34)n2)cc1	agar diffusion / agar	-	-	1.25 mg/mL	zone	6 mm
CCCCCOc1ccc(-c2ccc(-c3ccc(C(=O)N[C@H]4C[C@@H](O)[C@@H](O)NC(=O)[C@@H]5[C@@H](O)[C@@H](C)CN5C(=O)[C@H]([C@H](C)O)NC(=O)[C@H]([C@H](O)[C@@H](O)c5ccc(O)cc5)NC(=O)[C@@H]5C[C@@H](O)CN5C(=O)[C@H]([C@H](C)O)NC4=O)cc3)cc2)cc1	-	-	93-19	-	MFC	>50 µg/mL
CC(C)C[C@H](N)C(=O)O	broth dilution	-	MRCM 24290	-	MFC100	>18000 µg/mL
CC(=O)Oc1ccccc1C(=O)O.C[C@@H]1[C@H](O)[C@@H](C)/C=C/C=C/C=C/C=C/C=C/C=C/C=C/[C@H](O[C@@H]2O[C@H](C)[C@@H](O)[C@H](N)[C@@H]2O)C[C@@H]2O[C@](O)(C[C@@H](O)C[C@@H](O)[C@H](O)CC[C@@H](O)C[C@@H](O)CC(=O)O[C@H]1C)C[C@H](O)[C@H]2C(=O)O	broth dilution	-	AF293	32 µg/mL	inhibition	99.43%
Cc1ccc(C(C)C)c(O)c1	-	-	ATCC 46645	-	MLC	0.64 µg/mL
Cc1ccc(-n2cc(-c3ccc([N+](=O)[O-])cc3)c(C(=O)/C=C/N(C)C)n2)cc1	agar diffusion / agar	-	-	2.5 mg/mL	zone	0 mm
O=C(Cn1ccnc1)c1ccc(F)cc1F	broth dilution	-	-	100 µg/mL	inhibition	78%
C[C@H]1[C@H](O)[C@@H](C)/C=C/C=C/C=C/C=C/C=C/C=C/C=C/[C@H](O[C@@H]2O[C@H](C)[C@@H](O)[C@H](N)[C@@H]2O)C[C@@H]2O[C@](O)(C[C@@H](O)C[C@@H](O)CC[C@H](O)[C@@H](O)C[C@@H](O)CC(=O)O[C@H]1C)C[C@H](O)[C@H]2C(=O)O	-	-	35 isolates	-	Geometric mean MFC	1.08 µg/mL
C[C@H]1[C@H](O)[C@@H](C)/C=C/C=C/C=C/C=C/C=C/C=C/C=C/[C@H](O[C@@H]2O[C@H](C)[C@@H](O)[C@H](N)[C@@H]2O)C[C@@H]2O[C@](O)(C[C@@H](O)C[C@@H](O)CC[C@H](O)[C@@H](O)C[C@@H](O)CC(=O)O[C@H]1C)C[C@H](O)[C@H]2C(=O)O	-	-	94 isolates	-	Geometric mean MFC	1.76 µg/mL
O=c1cc(CO)occ1O	agar	sakA deletion	-	-	MIC99	>12800 µM

For reference, 2 entries again:

smiles | read by | mutations | strain | dose | read-out | value
C[C@H]1[C@H](O)[C@@H](C)/C=C/C=C/C=C/C=C/C=C/C=C/C=C/[C@H](O[C@@H]2O[C@H](C)[C@@H](O)[C@H](N)[C@@H]2O)C[C@@H]2O[C@](O)(C[C@@H](O)C[C@@H](O)CC[C@H](O)[C@@H](O)C[C@@H](O)CC(=O)O[C@H]1C)C[C@H](O)[C@H]2C(=O)O | - | - | 94 isolates | - | Geometric mean MFC | 1.76 µg/mL
O=c1cc(CO)occ1O | agar | sakA deletion | - | - | MIC99 | >12800 µM